# Percent effect of library compounds

The values are deposited in ChEMBL (CHEMBL3988442, “University of Dundee, Small-Polar-MMV Screening Library” (2021)).

Mtb glucose medium: 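Growth of Mycobacterium tuberculosis over 3 days (7H9 medium with glucose and tyloxapol); the read-out is not stated. Compounds at 50 µM. Direction is inferred from retests: higher values go with more growth inhibition. Size under these conditions: about 69,000 compounds, about 760 of them at 50% or above in at least one test.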
Mtb cholesterol medium: 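Whole-cell growth test on Mycobacterium tuberculosis, read after 4 days in a medium based on cholesterol and the lipid DPPC; the read-out is not stated. Concentration: 50 µM. Higher reads as more growth inhibition (inferred: compounds with an IC50 in retests scored well above the rest). About 69,000 compounds were tested under these conditions; 0.54% (about 370) showed 50% or more at least once.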

Results are given as percent effect. The record does not define 0% and 100%; most values in the screen are far below 50% and negative numbers occur (in some assays of this library far below -100). This is part of a subset picked to be rich in strong results. Two or more numbers in one place are separate tests of the same structure; such repeats can differ widely. A dash means the value is not listed here; it may have been measured.

| # | structure | Mtb glucose medium | Mtb cholesterol medium |
|---|---|---|---|
| 1 | `CCc1cc(CNC(=O)c2cc(NC(=O)C(C)C)ccc2Cl)[nH]n1` | 3.125 & -17.45 | -0.08969 |
| 2 | `N[C@@H]1c2ccccc2C2(CCN(c3ccc(C(F)(F)F)cn3)CC2)[C@H]1O` | 39.57 | 13.01 |
| 3 | `CSc1nc2ccsc2c(=O)n1CC(=O)N(C)C1CCCCC1` | 54.41 | - |
| 4 | `CS(=O)(=O)N1CCCC(C(=O)Nc2cnn(Cc3ccc(F)cc3)c2)C1` (stereo not drawn) | -5.394 | - |
| 5 | `CCNC(=O)C(C)NC(=O)Nc1ccccc1Cl` (stereo not drawn) | -22.02 & -8.757 | - |
| 6 | `Cc1nc(CNCC2CCCN2c2cccnn2)oc1C` (stereo not drawn) | -27.24 | -10.24 & -19.35 |
| 7 | `Cc1nc(N2CC[C@@H](c3ccc4ccccc4c3)[C@H](O)C2)no1` | - | 6.429 |
| 8 | `N#CC1CCCN(c2nc(-c3ccccc3)nc3c2CCNCC3)C1` (stereo not drawn) | 25.46 | 11.15 |
| 9 | `CCn1cc(NC(=O)c2cccc(OCC(F)(F)F)n2)cn1` | 14.39 | - |
| 10 | `CC(NC(=O)Cn1cccnc1=O)c1ccc(OC(F)(F)F)cc1` (stereo not drawn) | - | 2.139 & -30.83 |
| 11 | `COCc1nc(N(C)C)ncc1C(=O)Nc1ccc(Cl)cc1` | 3.728 | - |
| 12 | `[H][C@@]12C[C@@H](Oc3cccnc3)CN1CCN(C(=O)c1cccn1C)C2` | - | 52.39 |
| 13 | `COCCN(C/C=C/c1ccccc1)Cc1nccs1` | 14.41 | - |
| 14 | `CN1CCCN(C(=O)c2cnsn2)c2cc(F)ccc21` | -10.29 | - |
| 15 | `Cl.Clc1ccccc1CN1CCc2nc(C3CCNCC3)ncc2C1` | 65.83 | - |
| 16 | `Cc1ccc2nnc(C(=O)NCC3CCCC3)nc2c1` | 75.15 & 67.55 | 59.26 |
| 17 | `c1coc(CNc2nnc(Cc3ccsc3)o2)c1` | 45.34 | 37.08 |
| 18 | `CCS(=O)(=O)CCNc1nc(C2CCCC2)nc2c1cnn2C` | 5.046 | -4.161 & -12.86 |
| 19 | `CC(C)C(=O)Nc1cc(C(C)(C)C)nn1-c1ccccn1` | 22.47 | - |
| 20 | `Cc1ccc(C(=O)NC(C)Cn2cccn2)c(=O)[nH]1` (stereo not drawn) | -12.81 | -19.52 |
| 21 | `Cc1cc(N2CCOCC(Cc3ccc4[nH]ccc4c3)C2)ncn1` (stereo not drawn) | 42 | - |
| 22 | `CN(C)c1ncnc2c1CCN(C(=O)CN1CCCCC1)C2` | - | 75.09 |
| 23 | `Cc1nc(NCCSc2cnn[nH]2)c2cccnc2n1` | - | -16.51 |
| 24 | `COc1ccc(C2=NOC(C#N)C2)cc1` (stereo not drawn) | 54.01 | - |
| 25 | `c1cc(CCN2CCN(c3ccc4nncn4n3)CC2)ccn1` | 18.57 | - |
| 26 | `CN(C)c1cc(C(=O)N2CCCC(n3cccn3)C2)ccn1` (stereo not drawn) | - | 15.07 |
| 27 | `O=C(NCCn1ccnc1)c1csc2c1CCCC2` | - | -23.38 |
| 28 | `CC(Nc1ncnc2c1NC(=O)CN2)c1ccc2c(c1)OCO2` (stereo not drawn) | 17.54 | 9.34 |
| 29 | `CCOc1ccc(CN2C(=O)CC(CC)(CC)C2=O)nc1` | 18.21 & 17.42 | 12.92 |
| 30 | `COc1ccc(-c2noc(CN3CCN(c4cnccn4)CC3)n2)cc1` | - | 50.39 |
| 31 | `O=C(c1cc(=O)n(-c2ccccc2)[nH]1)N1CCOCC(O)C1` (stereo not drawn) | - | -12.51 |
| 32 | `O=C(Nc1cccnc1)C1=Cc2ccccc2OC1` | 16.26 & -8.468 | - |
| 33 | `COc1cccc(OC2CN(C(=O)c3ccnc(OC)c3)C2)c1` | - | 0.6346 |
| 34 | `CC(=O)NCC(=O)N1CCc2nc(C)nc(C)c2CC1` | -20.15 & -2.065 | - |
| 35 | `Cc1c(-c2cc(C(F)(F)F)nc(N3CCC(N)CC3)n2)cnn1C` | 12.62 & -26.15 | -27.77 |
| 36 | `CN(Cc1cnn(C)c1)C(=O)CCC(=O)c1ccc2c(c1)OCCO2` | - | -0.8241 |
| 37 | `CN(C)c1ccc(C(=O)NCCCc2ccccn2)cn1` | 4.638 | - |
| 38 | `Cc1nc(C(Cc2ccsc2)NC(=O)CN2CCOCC2)sc1C` (stereo not drawn) | -1.274 | - |
| 39 | `C[C@H](O)CNc1cc(-c2ccccc2)ncn1` | 9.159 | - |
| 40 | `Cc1cccc(NC(C)C(=O)Nc2nccs2)c1` (stereo not drawn) | 33.96 & 16.51 | -14.2 |
| 41 | `CCC(C)NC(=O)c1cncc(Br)c1` (stereo not drawn) | -1.287 | -16.85 |
| 42 | `Clc1ccccc1C1(c2ccnc(C3CCCC3)n2)CCNCC1` | 58.05 | - |
| 43 | `N#Cc1ccc(NCc2cccc(COC3CCOCC3)c2)nc1` | 124.4 & 26.47 | - |
| 44 | `CC(=O)Nc1ccc(-c2ccccc2CCN)cc1` | 40.71 | - |
| 45 | `CCc1ccccc1OC1CN(C(=O)c2ccnc(OC)c2)C1` | - | 66.86 |
| 46 | `CNS(=O)(=O)CC1CCCN1c1ccc(Br)cn1` (stereo not drawn) | -36.9 | - |
| 47 | `O=C(NC1CC1)c1ccnc(N2CCOC(c3ccc(Cl)cc3)C2)c1` (stereo not drawn) | 20.19 | - |
| 48 | `Cc1ccc(CN(CCCn2ccnc2)Cc2cnc(N(C)C)nc2)s1.O=C(O)CC(O)(CC(=O)O)C(=O)O` | 17.58 | - |
| 49 | `CC(C)c1noc(CN(C)C(=O)c2ncn[nH]2)n1` | -28.26 | -10.51 |
| 50 | `CC(C)CN1Cc2nc(N3CCCC(C)C3)ncc2C1=O` (stereo not drawn) | -20.83 | - |

Repeated from the top, 6 entries:

structure,Mtb glucose medium,Mtb cholesterol medium
CCc1cc(CNC(=O)c2cc(NC(=O)C(C)C)ccc2Cl)[nH]n1,3.125 & -17.45,-0.08969
N[C@@H]1c2ccccc2C2(CCN(c3ccc(C(F)(F)F)cn3)CC2)[C@H]1O,39.57,13.01
CSc1nc2ccsc2c(=O)n1CC(=O)N(C)C1CCCCC1,54.41,-
CS(=O)(=O)N1CCCC(C(=O)Nc2cnn(Cc3ccc(F)cc3)c2)C1 (stereo not drawn),-5.394,-
CCNC(=O)C(C)NC(=O)Nc1ccccc1Cl (stereo not drawn),-22.02 & -8.757,-
Cc1nc(CNCC2CCCN2c2cccnn2)oc1C (stereo not drawn),-27.24,-10.24 & -19.35